The results in this text go back to article PMC5959072, “Biochemical characterization of RecBCD enzyme from an Antarctic Pseudomonas species and identification of its cognate Chi (χ) sequence” (PLoS ONE, 2018).

For the series, the system named is Nc1ncnc2c1ncn2[C@@H]1O[C@H](COP(=O)(O)OP(=O)(O)OP(=O)(O)O)[C@@H](O)[C@H]1O. Description: purified protein. Conditions: 22 °C, pH 7.5, 1 mM Mg acetate, NdeI-linearized pBR322 dsDNA, ATP sites in RecB and RecD.
For “RecBCD^Ps (RecBCD enzyme of Pseudomonas syringae Lz4W) (Pseudomonas syringae; Q8L1Z1:K229Q)”, the Km was determined as 49.4 ± 5.8 µM and the kcat came out at 24 s⁻¹.

As for “RecBCD^Ps (RecBCD enzyme of Pseudomonas syringae Lz4W) (Pseudomonas syringae; Q8L1Z2:D1118A)”, the Km turned out to be 59.5 ± 8.5 µM and the kcat was found to be 221 s⁻¹.

Consider “RecBCD^Ps (RecBCD enzyme of Pseudomonas syringae Lz4W) (Pseudomonas syringae; Q8L1Z2:K28Q)”, for which the Km is 58.3 ± 11.0 µM and the kcat came to 26 s⁻¹.

For orientation: Km means the concentration of substrate that gives half-maximal velocity. In general, kcat refers to the maximal rate divided by the concentration of active sites.
